Results of unrelated studies side by side (data: NIAID ChemDB).

All rows: enzyme or target tests; species: Hepatitis C virus; protein: Nonstructural protein 5B; read-out: IC50

Two numbers with a dash give a range or band. ICn: concentration for n% inhibition. Neighbouring rows are from separate reports.

structure | result
CC(C)(C)c1cccc(Oc2cccc(-c3ccc(C=C4SC(=S)N(CC(=O)O)C4=O)o3)c2)c1 | ≤1 µM
COc1nc(NCCc2ccccn2)nc(Nc2ccc3cn[nH]c3c2)n1 | 1–10 µg/mL
CNC(=O)c1c(-c2ccc(F)cc2)oc2cc(-c3ncc[nH]3)c(OC)cc12 | ≤0.5 µM
Cc1cc(SC2=C(O)CC(CCc3cc(Cl)c(N)c(Cl)c3)(C3CCCCC3)OC2=O)c(C(C)(C)C)cc1OS(=O)(=O)c1ccc(C#N)cc1 | 1–10 µM
Cc1ccc(-c2ccc(C=C3SC(=S)NC3=O)s2)cc1 | ≤1 µM
CNC(=O)c1c(-c2ccc(F)cc2)oc2cc(N(C)S(C)(=O)=O)c(OCc3ncc[nH]3)cc12 | ≤0.5 µM
COc1nc(NCCCN2CCOCC2)nc(Nc2ccc3cn[nH]c3c2)n1 | 0.1–1 µg/mL
CNC(=O)c1c(-c2ccc(F)cc2)oc2cc(N(C)S(C)(=O)=O)c(OCc3ccc(C(=O)O)c(O)c3)cc12 | ≤0.5 µM
COc1ccc(CCC2(C3CCCC3)CC(O)=C(Sc3nnnn3CCN(C)C)C(=O)O2)cc1 | 1–10 µM
CNC(=O)c1c(-c2ccc(F)cc2)oc2ccc(OC(C)C)c(N(Cc3ccccc3)S(C)(=O)=O)c12 | ≤0.5 µM
COc1nc(Nc2ccc3cn[nH]c3c2)nc(N2CCN(C)CC2)n1 | >10 µg/mL
O=C(O)C(=O)/C=C(\O)c1cccc(NS(=O)(=O)c2cc(Cl)c(Cl)cc2Cl)c1 | 0.95 µM
CC(C)NC1=NC(NC(C)C)N(CN)C(Nc2ccc3cn[nH]c3c2)=N1 | 0.1–1 µg/mL
O=C(O)c1ccc(N2C(=O)C(=Cc3ccc(-c4cc([N+](=O)[O-])ccc4Cl)o3)SC2=S)cc1 | ≤1 µM
COC1=CC(=O)OC(CCc2cccc(C(C)C)c2)(C2CCCC2)C1 | 10–50 µM
CNC(=O)c1c(-c2ccc(F)cc2)oc2cc(N(CS(C)(=O)=O)c3nccs3)c(OC(C)C)cc12 | ≤0.5 µM
COc1nc(Nc2ccc3cn[nH]c3c2)nc(N2CCOCC2)n1 | 1–10 µg/mL
O=C1NC(=S)SC1=Cc1ccc(-c2cccs2)s1 | ≤1 µM
COc1nc(NCCN(C)C)nc(Nc2ccc3[nH]ncc3c2)n1 | >10 µg/mL
O=C(O)CCN1C(=O)C(=Cc2ccc(-c3cc4ccccc4s3)o2)SC1=S | ≤1 µM
CNC(=O)c1c(-c2ccc(F)cc2)oc2cc(-c3cc(COC)on3)c(OC)cc12 | ≤0.5 µM
O=C(O)CCN1C(=O)C(=Cc2ccc(-c3ccc(Cl)s3)o2)SC1=S | ≤1 µM
COc1nc(NCCCn2ccnc2)nc(Nc2ccc3[nH]ncc3c2)n1 | 0.1–1 µg/mL
CNC(=O)c1c(-c2ccc(F)cc2)oc2cc(N3CCOCC3)c(OCc3csc(C)n3)cc12 | ≤0.5 µM
O=C(O)c1ccc(N2C(=O)C(=Cc3ccc(-c4ccccc4Cl)o3)SC2=S)cc1 | ≤1 µM
Cc1cc(SC2=C(O)CC(CCc3ccc(O)cc3)(C3CCCC3)OC2=O)c(C(C)(C)C)cc1C(N)=O | 1–10 µM
O=C(O)c1cccc(N2C(=O)C(=Cc3ccc(-c4cc(C(F)(F)F)ccc4Cl)o3)SC2=S)c1 | ≤1 µM
COc1nc(NCCc2c[nH]c3ccccc23)nc(Nc2ccc3cn[nH]c3c2)n1 | 1–10 µg/mL

2 of the rows above, restated:

structure | result
Cc1cc(SC2=C(O)CC(CCc3ccc(O)cc3)(C3CCCC3)OC2=O)c(C(C)(C)C)cc1C(N)=O | 1–10 µM
COc1nc(Nc2ccc3cn[nH]c3c2)nc(N2CCN(C)CC2)n1 | >10 µg/mL